The source of these data is paper PMC8319846 (Frontiers in Microbiology, 2021).

“And” between values parts separate entries of the source, which are not always exact repeats. Equal values may be shown once.

The target in this assay is Alpha-hemolysin (Hla), recombinant wild type (S. aureus 8325-4, UniProt Q2G1X0). As to conditions: both partners purified.

A word on the Kd: it is the concentration at which binding is half-saturated. As a reminder, the koff is the rate constant with which the complex falls apart. As usually defined, the kon is the second-order rate constant of association.

B1: YG1 human anti-Hla monoclonal antibody (antibody, V domains shown)
VH: QVQLVQSGAEMQKPGASVKVSCKVTGYALASLSLHWVRQTPGAGLEWLGGLDPGHGETIYAEKLQGRVVMTGDTSTDTAYMQLSSLTSEDTAIYYCASDWLRHGFEFWGQGTTVTVSS
VL: EIVLTQSPATLSVSPGDGATLSCRASQSVSGNLAWYQKKPGQAPRLLIYDTSIRAAGVPPRFSGSGSGTEFTLTISSLQSEDFAVYYCQQYHNLPPLTFGPGTKLEIK
notes: also called YG1 mAb; source: expressed and purified as a full-length human IgG1 antibody
Turning to B1, the dissociation constant Kd was 2.95 nM and 1.92 nM and 2.98 nM and 2.6 nM; the koff is 0.000255 s⁻¹ and 0.000271 s⁻¹ and 0.000274 s⁻¹; the kon is 133000 M⁻¹ s⁻¹ and 91200 M⁻¹ s⁻¹ and 92600 M⁻¹ s⁻¹.
